Compound potency records, mixed from different reports. Data source: NIAID ChemDB in PubChem.

All rows: tests on isolated targets; organism: Pneumocystis carinii

Neighbouring rows are from separate reports. Blank or dashed fields: not listed here. Percent inhibition refers to the dose given; in toxicity tests it is the harm to the cells. ICn is the concentration giving n% inhibition.

SMILES,protein,method,read-out,dose,value
N=C(N)c1ccc2nc(CCc3nc4ccc(C(=N)N)cc4[nH]3)[nH]c2c1,Topoisomerase I,-,IC50,-,3.1 µM
Nc1nc(N)c2c(n1)CCc1c(Cl)cc(Cl)cc1-2,Dihydrofolate reductase,-,IC50,-,13 µM
CN(Cc1cnc2nc(N)nc(N)c2n1)c1ccc(C(=O)N[C@@H](CCC(=O)O)C(=O)O)cc1Br,Dihydrofolate reductase,-,IC50,-,0.00109 µM
Nc1nc(N)c2c(n1)CCc1ccc(Cl)cc1-2,Dihydrofolate reductase,-,IC50,-,7 µM
Nc1nc(N)c2nc(CNc3ccccc3)cnc2n1,Dihydrofolate reductase,-,IC50,-,>1.9 µM
CC(=O)Nc1ccc(S(=O)(=O)NC(=O)NCCC(C)C)cc1,DHPS,-,IC50,-,>10 µM
N=C(N)c1ccc2nc(/C=C/c3nc4ccc(C(=N)N)cc4[nH]3)[nH]c2c1,Topoisomerase II,-,IC50,-,1.25 µM
Cc1noc(NS(=O)(=O)c2ccc(N)cc2)c1C,DHPS,-,IC50,-,0.04 µM
N=C(N)c1ccc2nc(/C=C/c3nc4ccc(C(=N)N)cc4[nH]3)[nH]c2c1,Topoisomerase I,-,IC50,-,≤10 µM
Nc1ccc(S(=O)(=O)Nc2cnc3ccccc3n2)cc1,Oxidosqualene cyclase,HPLC,Ki,-,92 µM
CC1(C)N=C(N)N=C(N)N1c1ccc(CCc2ccccc2)cc1,DHFR,-,IC50,-,0.57 µM
Cc1c(CNc2ccc(C(=O)NC(CC(=O)O)C(=O)O)cc2)ccc2nc(N)nc(N)c12,Dihydrofolate reductase,-,IC50,-,0.00042 µM
Cc1nc(NS(=O)(=O)c2ccc(N)cc2)oc1C,DHPS,-,IC50,-,0.089 µM
CCc1nc(N)nc(N)c1-c1ccc(Cl)c(Cl)c1,DHFR,-,IC50,-,1.08 µM
CCc1c(CNc2ccc(C(=O)NC(CC(=O)O)C(=O)O)cc2)ccc2nc(N)nc(N)c12,Dihydrofolate reductase,-,IC50,-,0.0097 µM
N=C(N)c1ccc(OCCCCCOc2ccc(C(=N)N)cc2)cc1,Dihydroorotate dehydrogenase,-,IC50,-,>10 µM
CN(Cc1cnc2nc(N)nc(N)c2n1)c1ccc(C(=O)N[C@@H](CCC(=O)N[C@@H](CCC(=O)N[C@@H](CCC(=O)N[C@@H](CCC(=O)O)C(=O)O)C(=O)O)C(=O)O)C(=O)O)cc1,Dihydrofolate reductase,-,IC50,-,0.000035 µM
CCCc1c(OC)cc(Cc2cnc(N)nc2N)cc1OC,DHFR,-,IC50,-,20 µM
CN(Cc1cnc2nc(N)nc(N)c2n1)c1ccccc1,DHFR,-,IC50,-,10 µM
Nc1ccc(S(=O)(=O)N[n+]2ccccc2)cc1,DHPS,-,IC50,-,>10 µM
Nc1nc(N)c2c(n1)Cc1ccccc1-2,Dihydrofolate reductase,-,IC50,-,82 µM
c1cc2nc(CCCCc3nc4ccc(C5=NCCN5)cc4[nH]3)[nH]c2cc1C1=NCCN1,Topoisomerase I,-,IC50,-,≤10 µM
COc1ncnc(NS(=O)(=O)c2ccc(N)cc2)c1OC,Oxidosqualene cyclase,HPLC,inhibition,500 µM,42%
CC(=O)Nc1ccc(NCc2cnc3nc(N)nc(N)c3n2)cc1,DHFR,-,IC50,-,7.1 µM
CNc1ccc(C(=O)NCCOc2cc(Cc3cnc(N)nc3N)cc(OC)c2Br)cc1,DHFR,-,IC50,-,10 µM
Cc1cnc2nc(N)nc(N)c2n1,DHFR,-,IC50,-,>20 µM
N=C(N)c1ccc2nc(CCCCc3nc4ccc(C(=N)N)cc4[nH]3)[nH]c2c1,Topoisomerase II,-,IC50,-,12.5 µM
COc1ccc(Cc2cnc(N)nc2N)cc1OCCC(=O)NCC(=O)O,DHFR,-,IC50,-,9.3 µM
Nc1nc(N)c2c(n1)CCCc1cc(Cl)c(Cl)cc1-2,Dihydrofolate reductase,-,IC50,-,1.3 µM
COc1cc(NS(=O)(=O)c2ccc(N)cc2)ncn1,DHPS,-,IC50,-,0.054 µM
COc1cc(C(=O)N[C@@H](CCC(=O)O)C(=O)O)ccc1N(C)Cc1cnc2nc(N)nc(N)c2n1,Dihydrofolate reductase,-,IC50,-,0.00049 µM

2 of the rows above, restated:

SMILES	protein	method	read-out	dose	value
CCc1nc(N)nc(N)c1-c1ccc(Cl)c(Cl)c1	DHFR	-	IC50	-	1.08 µM
N=C(N)c1ccc2nc(/C=C/c3nc4ccc(C(=N)N)cc4[nH]3)[nH]c2c1	Topoisomerase II	-	IC50	-	1.25 µM